Results of unrelated studies side by side (data: NIAID ChemDB).

All rows: tests in culture; agent: HIV-1

An empty or dashed field is not shown. Rows are shuffled and stem from different studies. ECn: concentration that inhibits the pathogen or its effect by n%.

structure,method,measure,changes,strain or isolate,cells,value
Cc1cc(C)cc(Cc2c(C(C)C)c(=O)[nH]c(=O)n2COCCOc2ccccc2)c1,MTT,EC50,,IIIB,MT-4,>0.01 µM
Cc1ccsc1C(=S)Nc1ccc(Cl)c(/C=N/OC(C)(C)C)c1,syncytia,EC50,RT-Y181C,,CEM,0.54 µM
C=C(C)COC(=O)N[C@@H](Cc1ccccc1)[C@H](O)CN(CC(C)C)S(=O)(=O)c1ccc(F)cc1,p24,EC50,,IIIB,CEM,<10 µM
C=CCOC[C@H]1O[C@@H](n2cc(C)c(=O)n(C)c2=O)[C@H](O[Si](C)(C)C(C)(C)C)C12OS(=O)(=O)C=C2N,,EC50,,,CEM + CEM/0,4 µM
CC(C)OC(=O)c1cc(NC(=S)c2cccs2)ccc1Cl,syncytia,EC50,RT-L100I,,CEM,2 µM
CC(C)CN(C[C@@H](O)[C@H](Cc1ccccc1)NC(=O)O[C@H]1CCOC1)S(=O)(=O)c1ccc2nc[nH]c2c1,cytopathic effect / MTT,EC50,,LAI WT,MT-4,0.079 µM
CCc1c(Cc2cc(OC)cc(OC)c2)[nH]c(=S)[nH]c1=O,MTT,EC50,K103N + Y181C,A17,MT-4,>100 µM
Nc1ccn([C@H]2CC[C@@H](CO)O2)c(=O)n1,XTT,EC50,,IIIB,MT-4,0.069 µg/mL
Nc1nc(NC2CC2)c2ncn([C@H]3C=C[C@@H](CO)C3)c2n1,recombinant virus assay,EC50,K65R/Y181C/G190S,Clinical isolate,MT-2,0.2376 µM
Cc1ccc(NC(=O)COc2cccnc2-c2cccc3ccccc23)c([N+](=O)[O-])c1,MTT / absorbance,EC50,,IIIB,MT-4,8.18 µM
C/C=C/COc1cc(NC(=S)c2ccn(C)c2C)ccc1Cl,syncytia,EC50,RT-V106A,,CEM,2.2 µM
Cn1c(=O)c(O)c2n(c1=O)CCN(Cc1ccc(F)cc1)C2=O,p24,EC95,,,MT-4,<10 µM
CC(C)CN(C[C@@H](O)[C@H](Cc1ccccc1)NC(=O)OC(C)(C)C)S(=O)(=O)c1ccc(F)cc1,p24,EC50,,IIIB,CEM,<10 µM
O=C1c2c(O)c(=O)n(Cc3cscn3)c(=O)n2CCN1Cc1ccc(F)cc1,p24,EC50,,,MT-4,<10 µM
CCCc1cc(=O)oc2c3c(c4c(c12)OC(C)(C)C=C4)O[C@H](C)C[C@@H]3O,p24,EC50,,302143 Clinical isolate,PBMC,14.42 µM
Cc1ccc(-c2cccc(-c3ccc(CNCCN(C)C)cc3)n2)cc1,RT activity,EC50,,LAV-1,PBMC,4 µM
CC(C)CCC[C@@H](C)[C@H]1CC[C@H]2[C@@H]3CC[C@H]4C[C@@H](CCC=C(c5cc(Cl)c(O)c(C(=O)O)c5)c5cc(Cl)c(O)c(C(=O)O)c5)CC[C@]4(C)[C@H]3CC[C@]12C,cytopathic effect,EC50,,A012-AZT-SENS,MT-2,8 µM
Cc1ccc(-c2ncccc2OCC(=O)Nc2ccc(S(N)(=O)=O)cc2)cc1,MTT / absorbance,EC50,,IIIB,MT-4,>249 µM
CC(C)=CCOc1cc(NC(=S)c2ccsc2C)ccc1Cl,p24,EC50,,IIIB,CEM + CEM-SS,0.03 µM
O=C(Nc1ccc(Cl)c(C(=O)OC2CCCCC2)c1)c1ccccc1F,syncytia,EC50,RT-E138K,,CEM,11 µM
CCN1c2nc(C(F)(F)F)ccc2NC(=O)c2cc(CCOc3cc[n+]([O-])c4ccccc34)cnc21,p24,EC50,RT-K103N Y181C,,C8166,0.0035 µM
CCc1c(Cc2cc(C)cc(C)c2)n(COCCOc2ccccc2)c(=O)[nH]c1=O,MTT,EC50,Y181C,N119,MT-4,2.6 µM
Cc1occc1C(=S)Nc1ccc(Cl)c(OC(=O)OC(C)C)c1,syncytia,EC50,RT-Y181C,,CEM,0.3 µM
CN1CCN(c2nc(-c3cccs3)cc(-c3cc4ccccc4s3)n2)CC1,RT activity,EC50,,LAV-1,PBMC,8 µM
Cc1cn([C@@H]2O[C@H](CN3CCN(C)CC3)C3(OS(=O)(=O)C=C3N)[C@H]2O[Si](C)(C)C(C)(C)C)c(=O)n(C)c1=O,,EC50,,,MT-4,>50 µM
Cc1ccsc1C(=S)Nc1ccc(Cl)c(C(=O)OC(C(C)C)C(C)C)c1,syncytia,EC50,RT-K103N,,CEM,73 µM
Nc1nc(NC2CC2)c2ncn([C@H]3CO[C@@H](CO)O3)c2n1,RT activity,EC50,,IIIB Laboratory strain,MT-4,0.14 µM
CC(C)CN(C[C@@H](O)[C@H](Cc1ccccc1)NC(=O)O[C@H]1CO[C@H]2OCC[C@H]21)S(=O)(=O)c1ccc2ncn(Cc3ccncc3)c2c1,cytopathic effect / MTT,EC50,,LAI WT,MT-4,0.032 µM
CC1(C)CC(NC(=O)C(=O)Nc2ccc(Br)cc2)CC(C)(C)N1,p24,EC50,,IIIB,MT-2,11.88 µM
CC(C)CN(C[C@@H](O)[C@H](Cc1ccccc1)NC(=O)OC(C)(C)C)S(=O)(=O)c1ccc(F)cc1F,p24,EC50,,IIIB,CEM,<10 µM
CC(C)OC(=O)c1cc(NC(=S)c2ccsc2)ccc1Cl,syncytia,EC50,,IIIB,CEM,1.3 µM
C=CCOC(=O)N[C@@H](Cc1ccccc1)[C@H](O)CN(CC1CCCC1)S(=O)(=O)c1ccc(NC(C)=O)cc1,p24,EC50,,IIIB,CEM,<1 µM
CN1CCN(CCSc2nc(-c3ccc4ccccc4c3)c3ccccc3n2)CC1,RT activity,EC50,,LAV-1,PBMC,2.6 µM
CCc1c(Cc2ccccc2)n(COCCOc2ccccc2)c(=O)[nH]c1=O,MTT,EC50,Efavirenz-resistant (K103R + V179D + P225H),IIIB,MT-4,>32 µM
O=C1c2c(O)c(=O)n(C3CCNCC3)c(=O)n2CCN1Cc1ccc(F)cc1,p24,EC95,,,MT-4,<10 µM
CC(C)OC(=O)c1cc(NC(=S)c2ccccc2N)ccc1Cl,syncytia,EC50,,IIIB,CEM,0.15 µM
NC(=O)C[C@H](NC(=O)c1ccc2ccccc2n1)C(=O)N[C@@H](Cc1ccccc1)[C@H](O)CN(Cc1ccccc1)S(=O)(=O)c1ccccc1,p24,EC50,,IIIB,CEM,<10 µM
CN1CCN(c2nc(-c3ccccc3)cc(-c3cccs3)n2)CC1,RT activity,EC50,,LAV-1,PBMC,63 µM
CC(C)(C)c1ccc(-c2ncccc2OCC(=O)Nc2ccc(C(N)=O)cc2)cc1,MTT / absorbance,EC50,,IIIB,MT-4,>197 µM
COc1cccc2[nH]cc(C(=O)C(=O)N3CCN(C(=O)c4ccccc4)C[C@H]3C)c12,virus yield,EC50,,RF,MT-2/CXCR4,6.034 µM
CO/N=C/c1cc(NC(=S)c2ccoc2C)ccc1OC,syncytia,EC50,RT-L100I,,CEM,0.495 µM
COC(=O)c1ccc(NC(=O)COc2cccnc2-c2cccc3ccccc23)c(Br)c1,MTT / absorbance,EC50,,RES056,MT-4,>19.3 µM
CC(C)c1c(Cc2ccccc2)n(COCCOc2ccccc2)c(=O)[nH]c1=O,MTT,EC50,K103N + Y181C,A17,MT-4,>35 µM
Cc1cn([C@@H]2O[C@H](COS(=O)(=O)c3ccccc3)C3(OS(=O)(=O)C=C3N)[C@H]2O[Si](C)(C)C(C)(C)C)c(=O)n(C)c1=O,,EC50,,,CEM + CEM/0,>6.2 µM
COc1ccc(S(=O)(=O)N(CC2CCCC2)C[C@@H](O)[C@H](Cc2ccccc2)NC(=O)O[C@@H]2CCOC2)cc1,p24,EC50,,IIIB,CEM,<0.1 µM
CC1=C(C(=S)Nc2ccc(Cl)c(C=NOC(C)(C)C)c2)CCCO1,syncytia,EC50,RT-E138K,,CEM,0.108 µM
CN[C@@H]1[C@H](O[C@@H]2OC[C@@H](O)[C@H](O)[C@H]2O)[C@@H](O)[C@H](O[C@H]2c3cc(C)c(C(=O)N[C@H](C)C(=O)O)c(O)c3-c3c(cc4c(c3O)C(=O)c3cc(OC)cc(O)c3C4=O)[C@@H]2O)O[C@@H]1C,syncytia,EC50,,Mutant AH_3/#82,CEM,7.8 µM
Cc1cn([C@H]2C[C@H](N=[N+]=[N-])[C@@H](CO)O2)c(=O)[nH]c1=O,MTT / absorbance,EC50,,RES056,MT-4,0.011 µM
C=CCOC(=O)N[C@@H](Cc1ccccc1)[C@H](O)CN(CC1CCCC1)S(=O)(=O)c1ccc(Cl)cc1,p24,EC50,,IIIB,CEM,<10 µM
Cc1c(N)cccc1C(=O)N[C@@H](Cc1ccccc1)[C@H](O)CN(CC(C)C)S(=O)(=O)c1ccc2nc[nH]c2c1,cytopathic effect / MTT,EC50,,LAI WT,MT-4,0.398 µM
COc1ccc(-c2c3c(n([C@@H]4O[C@H](COC(C)=O)[C@@H](OC(C)=O)[C@H](OC(C)=O)[C@@H]4OC(C)=O)c(=S)c2C#N)-c2ccccc2C3)cc1,cytopathic effect / MTT,EC50,,,MT-4,1.79 µM
NS(=O)(=O)c1ccc(NC(=O)COc2cccnc2-c2ccc(C(F)(F)F)cc2)cc1,MTT / absorbance,EC50,,IIIB,MT-4,>220 µM
CC(C)=CCOc1cc(NC(=S)c2ccsc2C)ccc1Cl,syncytia,EC50,RT-Y181C,,CEM,0.037 µM
Cc1cn([C@@H]2O[C@H](COC(=O)C(C)C)C3(OS(=O)(=O)C=C3N)[C@H]2O[Si](C)(C)C(C)(C)C)c(=O)n(C)c1=O,,EC50,,,MT-4,>10 µM
CC1=C(C(=S)Nc2ccc(Cl)c(/C=N/OC(C)(C)C)c2)CCO1,syncytia,EC50,RT-V106A,,CEM,0.081 µM
CC(=O)c1ccc(NC(=O)COc2cccnc2-c2cccc3ccccc23)c(Br)c1,MTT / absorbance,EC50,,IIIB,MT-4,>5.51 µM
CCOCn1c(Cc2ccccc2)c(C(C)C)c(=O)[nH]c1=O,MTT,EC50,Y181C,N119,MT-4,>20 µM
C/C(=C(/CCO)SS/C(CCO)=C(\C)N(C=O)Cc1cnc(C)nc1N)N(C=O)Cc1cnc(C)nc1N,,EC50,,LAV-1,MT-4,<50 µM
Cc1occc1C(=S)Nc1ccc(Cl)c(C(=O)OC(C)C)c1,syncytia,EC50,RT-L100I,,CEM,1.7 µM
CC(C)CN(C[C@@H](O)[C@H](Cc1ccccc1)NC(=O)O[C@H]1CO[C@H]2OCC[C@H]21)S(=O)(=O)c1ccc2nc(COC(=O)O[C@H]3CO[C@H]4OCC[C@H]43)[nH]c2c1,cytopathic effect / MTT,EC50,,LAI WT,MT-4,1.585 µM
COc1ccccc1C(=S)Nc1ccc(Cl)c(C(=O)OC(C)C)c1,syncytia,EC50,RT-L100I,,CEM,8.7 µM
C#C[C@@]1(CO)C=C[C@H](n2cc(C)c(=O)[nH]c2=O)O1,recombinant virus assay,EC50,A62V (mixture)/L74V/V75I (mixture)/K103N/Y115F/F116Y/Q151M,Clinical isolate,MT-2,0.969 µM
COc1cc(Cc2[nH]c(=S)[nH]c(=O)c2C(C)C)cc(OC)c1,MTT,EC50,Y181C,N119,MT-4,>100 µM
O=C1c2c(O)c(=O)n(C3CCSCC3)c(=O)n2CCN1Cc1ccc(F)cc1,p24,EC95,,,MT-4,<10 µM
Cc1ccsc1C(=O)Nc1ccc(Cl)c(/C=N/OC(C)(C)C)c1,syncytia,EC50,RT-Y181C,,CEM,8.4 µM

The first 4 rows once more:

structure,method,measure,changes,strain or isolate,cells,value
Cc1cc(C)cc(Cc2c(C(C)C)c(=O)[nH]c(=O)n2COCCOc2ccccc2)c1,MTT,EC50,,IIIB,MT-4,>0.01 µM
Cc1ccsc1C(=S)Nc1ccc(Cl)c(/C=N/OC(C)(C)C)c1,syncytia,EC50,RT-Y181C,,CEM,0.54 µM
C=C(C)COC(=O)N[C@@H](Cc1ccccc1)[C@H](O)CN(CC(C)C)S(=O)(=O)c1ccc(F)cc1,p24,EC50,,IIIB,CEM,<10 µM
C=CCOC[C@H]1O[C@@H](n2cc(C)c(=O)n(C)c2=O)[C@H](O[Si](C)(C)C(C)(C)C)C12OS(=O)(=O)C=C2N,,EC50,,,CEM + CEM/0,4 µM